Anti-infective test results gathered from many reports (values: NIAID ChemDB through PubChem).

Common to all: whole-cell or culture tests; organism: HIV-1; measure: EC50

An empty or dashed field is not shown. Rows are shuffled and stem from different studies. ECn is the concentration giving n% inhibition of infection, replication or growth.

| structure | setting | strain | method | cells | mutations | value |
|---|---|---|---|---|---|---|
| C#Cc1ccc(Nc2nccc(Oc3c(C)cc(-c4cn(Cc5ccc([N+](=O)[O-])cc5)nn4)cc3C)n2)cc1 | - | IIIB | MTT | MT-4 | E138K | 0.33 µM |
| CC(C)CN(C[C@@H](O)[C@H](Cc1ccccc1)NC(=O)[C@@H](NC(=O)CNCc1cccc(F)c1)C(C)(C)C)S(=O)(=O)c1ccc(N)cc1 | - | THAI 9466 | virus yield | MT-2 | - | <0.011 µM |
| O=c1[nH]cnc2c1ncn2[C@@H]1O[C@H](CO)C[C@@H]1F | - | - | thymidine uptake | ATH8 | - | 5 µM |
| Cc1cn([C@H]2C=C[C@@H](CO)O2)c(=O)[nH]c1=O | - | Clinical isolate | recombinant virus assay | MT-2 | A62V (mixture)/L74V/V75I (mixture)/K103N/Y115F/F116Y/Q151M | 7.2 µM |
| CC(C)OC(=O)[C@H](C)NP(=O)(CO[C@H](C)Cn1cnc2c(N)ncnc21)Oc1ccccc1 | - | IIIB | XTT / absorbance | MT-2 | - | 0.01 µM |
| O=C1N(Cc2ccncc2)[C@H](Cc2ccccc2)[C@H](O)[C@@H](O)[C@@H](Cc2ccccc2)N1Cc1ccncc1 | - | RF | hybridisation | MT-2 | - | <98 µM |
| Cc1ccnc2c1NC(=O)c1cccnc1N2C1CC1 | - | - | - | MT-4 | RT-M41L T215Y L100I | <0.4 µM |
| Nc1nc(=O)n([C@@H]2CS[C@H](CO)O2)cc1F | - | RTMC (RT D67N K70R T215F K219Q) | plaque count | HT4 + HT4 LacZ-1 | RT-D67N K70R T215F K219Q | 0.4 µM |
| COC(=O)N[C@H](C(=O)N[C@@H](Cc1ccccc1)[C@@H](O)CN(Cc1ccc(-c2ccccn2)cc1)NC(=O)[C@@H](NC(=O)OC)C(C)(C)C)C(C)(C)C | - | 92UG037 | p24 / luminescence | MT-2 | - | 0.0038 µM |
| C[C@H](Cn1cnc2c(N)ncnc21)OCP(=O)(O)O | - | BaL | p24 / syncytia | Macrophage + Monocytes/macrophages | - | 0.04 µM |
| C#Cc1ccc(Nc2nccc(Oc3c(C)cc(-c4cn(CCCC(=O)OC)nn4)cc3C)n2)cc1 | - | IIIB | MTT | MT-4 | Y188L | >20.15 µM |
| COc1ccc(S(=O)(=O)N(CC(C)C)C[C@@H](O)[C@H](Cc2ccc(OC)c(Cl)c2)NC(=O)O[C@H]2CO[C@H]3OCC[C@H]32)cc1 | - | 92UG037 | p24 / luminescence | PBMC | - | 0.00032 µM |
| CC(C)CN(C[C@@H](O)[C@H](Cc1ccccc1)NC(=O)[C@@H](NC(=O)CNCc1cccc(F)c1)C(C)(C)C)S(=O)(=O)c1cccc(N)c1 | - | IIIB | virus yield | PBMC | - | <0.012 µM |
| O=C1N(Cc2cccnc2)[C@H](Cc2ccccc2)[C@H](O)[C@@H](O)[C@@H](Cc2ccccc2)N1Cc1ccc2ccccc2c1 | - | RF | hybridisation | MT-2 | - | <0.72 µM |
| CO[P@](=O)(c1cc(C)cc(/C=C/C#N)c1)c1c(C(N)=O)[nH]c2ccc(Cl)cc12 | - | IIIB | - | MT-4 | - | 0.0005 µM |
| CC(C)=CCOc1cc(NC(=S)c2ccsc2C)ccc1Cl | - | IIIB | cytopathic effect | CEM | RT-Y181C | 0.014 µg/mL |
| Cc1ccnc2c1NC(=O)c1cccnc1N2C1CC1 | - | A17 | antigen | C8166 | K103N + Y181C | 203.4 µM |
| COC(=O)[C@H](Cc1ccc(O)cc1)NP(=O)(OC[C@H]1C=C[C@@H](n2cnc3c(N)ncnc32)C1)Oc1ccccc1 | - | IIIB | cytopathic effect / MTS | MT-4 | - | 0.95 µM |
| C#Cc1ccc(Nc2nccc(Oc3c(C)cc(-c4cn(Cc5ccc(O)cc5)nn4)cc3C)n2)cc1 | - | IIIB | MTT | MT-4 | K103N | 0.054 µM |
| CC(C)OC(=O)OCOP(=O)(CO[C@H](C)Cn1cnc2c(N)ncnc21)OCOC(=O)OC(C)C | - | NL4-3 | GFP | TZM-gfp | M184V/A502V | 0.15 µM |
| Nc1ccn([C@H]2C=C[C@@H](CO)O2)c(=O)n1 | - | HXB2 | plaque count | CD4+HELA + HeLa | RT-T215Y | 0.6 µM |
| CC(C)OC(=O)[C@H](C)N[P@@](=O)(CO[C@H](C)Cn1cnc2c(N)ncnc21)Oc1ccccc1 | - | IIIB | XTT / absorbance | MT-2 | - | 0.06 µM |
| Cc1ccnc2c1NC(=O)c1cccnc1N2C1CC1 | - | IIIB | MTT | MT-4 | E138K | 0.18 µM |
| C[C@H](Cn1cnc2c(N)nc(N)nc21)OCP(=O)(O)O | - | BaL | p24 / syncytia | Macrophage + Monocytes/macrophages | - | 0.02 µM |
| CC(C)Nc1cccnc1N1CCN(C(=O)c2cc3cc(NS(C)(=O)=O)ccc3[nH]2)CC1 | - | IIIB | cytopathic effect | CEM | - | 0.006 µg/mL |
| CCc1cc(NCc2nc3c(Cl)ccc(Cl)c3o2)c(=O)[nH]c1C | - | MF | antigen | MT-4 | - | ~0.06 µM |
| C#Cc1ccc(Nc2nccc(Oc3c(C)cc(-c4cn(CCc5ccccc5)nn4)cc3C)n2)cc1 | - | IIIB | MTT | MT-4 | - | 0.16 µM |
| CN1N=C(N)c2cn([C@@H]3O[C@H](COP(=O)(O)O)[C@@H](O)[C@H]3O)c3ncnc1c23 | - | 205 | XTT | CEM + CEM-SS | - | >2.8 µM |
| Nc1nc(=O)n([C@@H]2CS[C@H](CO)O2)cc1F | - | Clinical isolate | recombinant virus assay | MT-2 | M41L/D67N/K70R/M184V/L210W/T215Y/K219E | >13.3 µM |
| CC[C@H](C)[C@H](NC(=O)c1ccccc1SSc1ccccc1C(=O)N[C@H](C(=O)O)[C@@H](C)CC)C(=O)O | - | AZT-resistant | p24 / RT activity | CEM | - | 14.5 µM |
| O=c1[nH]cnc2c1ncn2[C@H]1CC[C@@H](CO)O1 | - | RTMC(184) (RT D67N K70R M184V T215F K219Q) | plaque count | HT4 + HT4 LacZ-1 | RT-D67N K70R M184V T215F K219Q | 3.02 µM |
| O=C1N(Cc2ccc3ccccc3c2)[C@H](Cc2ccccc2)[C@H](O)[C@@H](O)[C@@H](Cc2ccccc2)N1CC1CC1 | - | RF | hybridisation | MT-2 | - | <1.3 µM |
| CC[C@H](C)[C@H](NP(=O)(OC[C@H]1C=C[C@@H](n2cnc3c(N)ncnc32)C1)Oc1ccccc1)C(=O)OC | - | IIIB | cytopathic effect / MTS | MT-4 | - | 1.3 µM |
| C#C[C@@]1(CO)C=C[C@H](n2cc(C)c(=O)[nH]c2=O)O1 | - | NL4-3 | β-galactosidase | MAGI (CCR5) + MAGI | RT-K103N | 0.16 µM |
| CC(=O)O[C@@]12C[C@@H](C)[C@@]3(O)[C@@H](C=C(CO)C[C@]4(O)C(=O)C(C)=C[C@@H]34)[C@@H]1C2(C)C | - | A17 | p24 / ELISA | C8166 | - | 3.34 µM |
| Cc1cn([C@H]2C[C@H](N=[N+]=[N-])[C@@H](CO)O2)c(=O)[nH]c1=O | - | AMR100 | cytopathic effect / trypan blue | MT-4 | - | 0.19 µM |
| C=C1[C@H](CO)[C@@H](O)C[C@@H]1n1cnc2c(=O)[nH]c(N)nc21 | - | RES056 | MTT | MT-4 | - | 0.043 µM |
| CC(C)=CCOc1cc(NC(=S)c2ccoc2C)ccc1Cl | - | IIIB | cytopathic effect | CEM | RT-E138K | 0.004 µg/mL |
| c1cc(CN2CCCNCCNCCCNCC2)ccc1CN1CCCNCCNCCCNCC1 | - | BAL R5 | antigen | PBMC | - | >25 µg/mL |
| O=c1[nH]cnc2c1ncn2[C@H]1CC[C@@H](CO)O1 | - | A012B WT | β-galactosidase | MAGI (CCR5) + MAGI | - | 1.1 µM |
| C[C@H](Cn1cnc2c(N)ncnc21)OCP(=O)(O)N[C@H](C)C(=O)O | - | IIIB | XTT / absorbance | MT-2 | - | 10 µM |
| Cc1cn([C@H]2C[C@H](N=[N+]=[N-])[C@@H](CO)O2)c(=O)[nH]c1=O | clinical isolate | ADA | cytopathic effect / XTT | Macrophage + Monocytes/macrophages | - | 0.01 µM |
| CC(C)CN(C[C@@H](O)[C@H](Cc1ccccc1)NC(=O)O[C@H]1CCOC1)S(=O)(=O)c1ccc(N)cc1 | - | NL4-3 | cytopathic effect / MTT | MT-4 | - | 0.03 µM |
| CCCN1C(=O)N(Cc2ccc3ccccc3c2)[C@H](Cc2ccccc2)[C@H](O)[C@@H](O)[C@H]1Cc1ccccc1 | - | RF | hybridisation | MT-2 | - | <3.3 µM |
| COC(=O)N[C@@H](Cc1c[nH]c2ccccc12)C(=O)NCCCC[C@@H](CO)N(CC(C)C)S(=O)(=O)c1ccc(N)cc1 | - | NL4-3 | cytopathic effect / MTT | MT-4 | PR-M46I V82T I84V 10R 63P | 0.957 µM |
| O=c1[nH]cnc2c1ncn2[C@H]1CC[C@@H](CO)O1 | - | HXB2 | plaque count | CD4+HELA + HeLa | RT-V75T | 11 µM |
| CC(C)[C@H](NC(=O)c1ccc2ccccc2n1)C(=O)N[C@@H](Cc1ccccc1)[C@H](O)CN1CC[C@@H](OCc2ccncc2)C[C@H]1C(=O)NC(C)(C)C | - | HXB2 | p24 / ELISA / antigen | H9 | - | 0.001 µM |
| Cc1ccc(S(=O)(=O)N(CC(C)C)C[C@@H](O)[C@H](Cc2ccccc2)NC(=O)O[C@H]2CO[C@H]3OCC[C@H]32)cc1 | - | IIIB | ATP | MT-2 | 8374-P36 GS-8374-resistant | 0.0095 µM |
| S=C(NCCc1cccs1)Nc1ccc(Br)cn1 | - | Q252-2 Clinical isolate NRTI-resistant | plaque count | HT4 + HeLa | RT-M41L L210W T215Y | 0.156 µM |
| Cc1cn([C@H]2C[C@H](N=[N+]=[N-])[C@@H](CO)O2)c(=O)[nH]c1=O | - | RF | p24 / RT activity | MT-4 | - | 0.085 µM |
| Nc1nc2c(ncn2COCCO)c(=O)[nH]1 | - | CXCR4-tropic HIV pseudovirus | GFP | PHA-activated CD4+ lymphoblasts | M184V | 50 µM |
| COC(=O)[C@@H](CCSC)NP(=O)(OC[C@H]1C=C[C@@H](n2cnc3c(N)ncnc32)C1)Oc1ccccc1 | - | IIIB | cytopathic effect / trypan blue | MT-4 | - | 4.07 µM |
| C#Cc1ccc(Nc2nccc(Oc3c(C)cc(-c4cn(Cc5ccc(S(N)(=O)=O)cc5)nn4)cc3C)n2)cc1 | - | IIIB | MTT | MT-4 | Y188L | ≥3.56 µM |
| Cc1cn([C@H]2C[C@H](N=[N+]=[N-])[C@@H](CO)O2)c(=O)[nH]c1=O | - | IIIB | p24 / ELISA | MT-2 | D437N | 0.153 µM |
| COC(=O)[C@H](CC(C)C)NP(=O)(OC[C@H]1C=C[C@@H](n2cnc3c(N)ncnc32)C1)Oc1ccccc1 | - | IIIB | cytopathic effect / MTS | MT-4 | - | 0.64 µM |
| O=C1N(Cc2cccc(F)c2)[C@H](Cc2ccccc2)[C@H](O)[C@@H](O)[C@@H](Cc2ccccc2)N1Cc1cccc(F)c1 | - | RF | hybridisation | MT-2 | - | <0.71 µM |
| Cc1ccnc2c1NC(=O)c1cccnc1N2C1CC1 | - | - | RT activity / fluorescence | - | K103N | >42 µM |
| Cc1occc1C(=S)Nc1ccc(Cl)c(/C=N/OC(C)(C)C)c1 | - | HE | cytopathic effect | MOLT | - | 0.08 µg/mL |
| COC(=O)N[C@H](C(=O)N[C@@H](Cc1ccccc1)[C@@H](O)CN(Cc1ccc(-c2ccccn2)cc1)NC(=O)[C@@H](NC(=O)OC)C(C)(C)C)C(C)(C)C | - | IIIB | p24 / ELISA | MT-2 | M200I | 0.0008 µM |

Again, the opening 8 rows:

structure	setting	strain	method	cells	mutations	value
C#Cc1ccc(Nc2nccc(Oc3c(C)cc(-c4cn(Cc5ccc([N+](=O)[O-])cc5)nn4)cc3C)n2)cc1	-	IIIB	MTT	MT-4	E138K	0.33 µM
CC(C)CN(C[C@@H](O)[C@H](Cc1ccccc1)NC(=O)[C@@H](NC(=O)CNCc1cccc(F)c1)C(C)(C)C)S(=O)(=O)c1ccc(N)cc1	-	THAI 9466	virus yield	MT-2	-	<0.011 µM
O=c1[nH]cnc2c1ncn2[C@@H]1O[C@H](CO)C[C@@H]1F	-	-	thymidine uptake	ATH8	-	5 µM
Cc1cn([C@H]2C=C[C@@H](CO)O2)c(=O)[nH]c1=O	-	Clinical isolate	recombinant virus assay	MT-2	A62V (mixture)/L74V/V75I (mixture)/K103N/Y115F/F116Y/Q151M	7.2 µM
CC(C)OC(=O)[C@H](C)NP(=O)(CO[C@H](C)Cn1cnc2c(N)ncnc21)Oc1ccccc1	-	IIIB	XTT / absorbance	MT-2	-	0.01 µM
O=C1N(Cc2ccncc2)[C@H](Cc2ccccc2)[C@H](O)[C@@H](O)[C@@H](Cc2ccccc2)N1Cc1ccncc1	-	RF	hybridisation	MT-2	-	<98 µM
Cc1ccnc2c1NC(=O)c1cccnc1N2C1CC1	-	-	-	MT-4	RT-M41L T215Y L100I	<0.4 µM
Nc1nc(=O)n([C@@H]2CS[C@H](CO)O2)cc1F	-	RTMC (RT D67N K70R T215F K219Q)	plaque count	HT4 + HT4 LacZ-1	RT-D67N K70R T215F K219Q	0.4 µM